Compound potency records, mixed from different reports. Data source: NIAID ChemDB in PubChem.

All rows: growth or infection tests; organism: HIV-1; measure: EC50

Lines come from different laboratories, so protocols vary. An empty or dashed field is not shown. ECn: concentration that inhibits the pathogen or its effect by n%.

SMILES | changes | method | conditions | strain | cells | value
Cc1cn([C@H]2C=C[C@@H](CO)O2)c(=O)[nH]c1=O | RT-M184V | luciferase |  | Recombinant | HeLa | 1.59 µM
Nc1nc(=O)n([C@@H]2CS[C@H](CO)O2)cc1F | K65R M184V | recombinant virus assay |  | Clinical isolate | MT-2 | >13.3 µM
CNc1ccc(S(=O)(=O)c2ccccc2[N+](=O)[O-])cc1Cl |  | XTT |  | IIIB | CEM + CEM-SS | 0.1 µM
Cc1ccnc2c1NC(=O)c1cccnc1N2C1CC1 | RT-D67N K70R T215Y K219Q K103N |  |  |  | MT-4 | >3 µM
CC[C@@H](C)[C@H](C(=O)O)N1C[C@H](CN2CCC(c3cc(Cc4ccc(OC)c(OC)c4)nn3CC)CC2)[C@@H](c2cccc(F)c2)C1 |  | β-galactosidase | 50% human serum | BaL | HeLa | <0.033 µM
Cc1cn([C@H]2C[C@H](N=[N+]=[N-])[C@@H](CO)O2)c(=O)[nH]c1=O | K112M K113E V128I M200I H219P | p24 / ELISA |  | IIIB | MT-2 | 0.153 µM
CCN[C@H]1CO[C@@H]2OCC[C@H](OC(=O)N[C@@H](Cc3ccccc3)[C@H](O)CN(CC(C)C)S(=O)(=O)c3ccc4nc(NC5CC5)sc4c3)[C@@H]21 | L10I L33I M36I M46I I54V K55R I62V L63P A71V G73S V82T L90M I93L | p24 / luminescence |  | NL4-3 | MT-4 | 0.0063 µM
Cc1cn([C@H]2C[C@H](N=[N+]=[N-])[C@@H](CO)O2)c(=O)[nH]c1=O | RT-V179D | cytopathic effect / XTT |  | NL4-3 | CEM + CEM-SS | 0.003 µM
Cc1ccnc2c1NC(=O)c1cccnc1N2C1CC1 | RT-M41L M184V T215Y | plaque count |  | RTMN(184) (RT M41L M184V T215Y) | HT4 + HT4 LacZ-1 | 0.06 µM
C/C=C/CSc1cc(NC(=S)c2ccsc2C)ccc1Cl |  | cytopathic effect / XTT |  | Isolate NL4-3 | CEM + CEM-SS | 0.05 µM
Cc1c(C#N)cc(C(F)F)cc1Oc1c(C(F)(F)C(F)F)ncn(Cc2cc(F)c[nH]c2=O)c1=O | K103N | luminescence |  |  |  | 0.0239 µM
CCOP(=O)(COc1ccc(C[C@H](NC(=O)O[C@H]2CO[C@H]3OCC[C@H]32)[C@H](O)CN(CC(C)C)S(=O)(=O)c2ccc(OC)cc2)cc1)OCC | 8374-P36 GS-8374-resistant | ATP |  | IIIB | MT-2 | 0.015 µM
CC(C)CN(C[C@@H](O)[C@H](Cc1ccccc1)NC(=O)O[C@H]1CCO[C@H]2OCC[C@H]21)S(=O)(=O)c1ccc2nc(NC3CC3)sc2c1 | L10F K20T D30N K45I A71V V77I | p24 / luminescence |  | NL4-3 | MT-4 | 0.0016 µM
Cc1cn([C@H]2C[C@H](N=[N+]=[N-])[C@@H](CO)O2)c(=O)[nH]c1=O |  | XTT |  | SK1 | CEM + CEM-SS | 0.005 µM
CNc1ccc(Cl)cc1S(=O)(=O)c1ccccc1[N+](=O)[O-] |  | XTT |  | MN | CEM + CEM-SS | 0.5 µM
CC(C)CN(C[C@@H](O)[C@H](Cc1cc(F)cc(F)c1)NC(=O)O[C@H]1CCO[C@H]2OCC[C@H]21)S(=O)(=O)c1ccc2nc(NC(C)C)sc2c1 | L10I K14R L33I M36I M46I F53I K55R I62V L63P A71V G73S V82A L90M I93L | p24 / luminescence | clinical isolate, multidrug-resistant | Clinical isolate | PBMC | 0.0022 µM
Cc1c(Sc2ccccc2)n(COCCO)c(=O)[nH]c1=O | RT-P236L | cytopathic effect / XTT |  | IIIB HEPT-resistant (RT P236L) | CEM + CEM-SS | >325 µM
Cc1occc1C(=S)Nc1ccc(Cl)c(/C=N/OC(C)(C)C)c1 | RT-M184V | cytopathic effect / XTT |  | NL4-3 (RT M184V) | CEM + CEM-SS | 0.1 µM
Cc1cccc(C)c1OCC(=O)N[C@@H](Cc1ccccc1)[C@@H](O)C[C@H](Cc1ccccc1)NC(=O)[C@H](C(C)C)N1CCCNC1=O | L10I I15V K20R L24I M36I M46L I54V I62V L63P K70Q V82A L89M | p24 / luminescence | clinical isolate, multidrug-resistant | Clinical isolate | PBMC | 0.42 µM
CCn1nc(Cc2ccc(OC)cc2)cc1C1CCN(C[C@H]2CN([C@@H](C(=O)O)C(C)C)C[C@@H]2c2cccc(F)c2)CC1 |  | β-galactosidase | 50% human serum | BaL | HeLa | <0.1 µM
Cc1ccnc2c1NC(=O)c1cccnc1N2C1CC1 | RT-V108I | XTT |  | NL4-3 | CEM + CEM-SS | 0.06 µM
CC[C@@H](C)[C@H](C(=O)O)N1C[C@H](CN2CCC(c3cc(Cc4ccc(OC(F)F)cc4)nn3CC)CC2)[C@@H](c2cccc(F)c2)C1 |  | β-galactosidase | 50% human serum | BaL | HeLa | <0.011 µM
CN1N=C(N)c2cn([C@@H]3O[C@H](COP(=O)(O)O)[C@@H](O)[C@H]3O)c3ncnc1c23 |  | XTT |  | RF | CEM + CEM-SS | 0.03 µM
Cc1ccnc2c1NC(=O)c1cccnc1N2C1CC1 | RT-V90I T139I P225S | cytopathic effect / XTT |  | IIIB | CEM + CEM-SS | 0.01 µM
CN[C@H]1CO[C@@H]2OCC[C@H](OC(=O)N[C@@H](Cc3ccccc3)[C@H](O)CN(CC(C)C)S(=O)(=O)c3ccc4nc(NC5CC5)sc4c3)[C@@H]21 | L10F M46I I54V V82A | p24 / luminescence |  | NL4-3 | MT-4 | 0.0059 µM
Cc1cn([C@H]2C[C@H](N=[N+]=[N-])[C@@H](CO)O2)c(=O)[nH]c1=O |  | cytopathic effect / XTT | clinical isolate | CLADE C | PBMC | 0.007 µM
Cc1cn([C@H]2C=C[C@@H](CO)O2)c(=O)[nH]c1=O | M41L/D67N/K70R/A98G/K101E/M184V/G190A/L210W/T215Y/K219E | recombinant virus assay |  | Clinical isolate | MT-2 | 0.816 µM
O=C1N(Cc2ccc(CO)cc2)[C@H](Cc2ccccc2)[C@H](O)[C@@H](O)[C@@H](Cc2ccccc2)N1Cc1ccc(CO)cc1 |  | p24 |  | 1 clinical isolate | PBMC | 0.07 µM
Cc1cc(C#N)cc(C)c1Oc1nc(Nc2ccc(C#N)cc2)nc(N)c1Br | ZA-resistant mutant | absorbance |  | 92BR014 | PBMC | 0.0009 µM
C#C[C@]1(CO)O[C@@H](n2cnc3c(N)nc(F)nc32)C[C@@H]1O | V90I/M184I | fluorescence |  | Clinical isolate | MT4-GFP | 0.00586 µM
CCN(c1nc(F)ccc1NC(C)(C)C)C1CCN(C(=O)c2cc3cc(NC(=O)N4CCN(C)CC4)ccc3[nH]2)CC1 | R41K | p24 / ELISA |  | IIIB | MT-2 | 0.0261 µM
CCOc1ccc(Cc2cc(C3CCN(C[C@H]4CN([C@@H](C(=O)O)C(C)C)C[C@@H]4c4cccc(F)c4)CC3)n(CC)n2)cc1 |  | β-galactosidase | 50% human serum | BaL | HeLa | <0.3 µM
CC(C)OC(=O)OCOP(=O)(CO[C@H](C)Cn1cnc2c(N)ncnc21)OCOC(=O)OC(C)C |  | GFP |  | NL4-3 | TZM-gfp | 1 µM
N#Cc1cc2[nH]c3ccccc3c2n(-c2ccc([N+](=O)[O-])cc2)c1=O | RT-M41L S68N G112S M184V | luciferase |  | Recombinant | HeLa | 1.82 µM
O=C1CN=C(c2ccc[nH]2)c2cc(Cl)ccc2N1 |  | virus yield |  | IIIB/LAI | HUT-78/IIIB/LAI + HUT 78 | 1 µM
S=C(NCCc1cccs1)Nc1ccc(Br)cn1 | RT-K70R | plaque count |  | P467-1 Clinical isolate NRTI-resistant | HT4 + HeLa | 0.0611 µM
Cn1c2ccccc2c2c1cc(C#N)c(=O)n2-c1ccc([N+](=O)[O-])cc1 | RT-K103N V108I | luciferase |  | NNRTI-resistant | HeLa | 0.0276 µM
CC(C)=CCN1Cc2cc(Cl)cc3[nH]c(=S)n(c23)C[C@@H]1C | RT-D67N K70R T215Y K219Q | plaque count |  | RTMC | HT4 + HT4 LacZ-1 | 0.14 µM
CC(C)=CCOc1cc(NC(=S)c2ccoc2C)ccc1Cl |  | XTT |  | IIIB | CEM + CEM-SS | 0.005 µM
Cc1ccnc2c1NC(=O)c1cccnc1N2C1CC1 |  | cytopathic effect / XTT |  | 4xAZT | CEM + CEM-SS | 0.02 µM
O=[N+]([O-])c1ccccc1S(=O)(=O)c1cc(Cl)cc2c1NCCC2 |  | XTT |  | IIIB | CEM + CEM-SS | 0.3 µM
CCc1c(Sc2ccccn2)n(COCc2ccccc2)c(=O)[nH]c1=O | RT-Y188C | cytopathic effect / XTT |  | NL4-3 | CEM + CEM-SS | 2.4 µM
CC[C@H](C)[C@H](C(=O)O)N1C[C@H](CN2CCC(c3cc(Cc4ccc5c(c4)OCO5)nn3CC)CC2)[C@@H](c2cccc(F)c2)C1 |  | β-galactosidase | 50% human serum | BaL | HeLa | <0.1 µM
Cc1cn([C@H]2C[C@H](N=[N+]=[N-])[C@@H](CO)O2)c(=O)[nH]c1=O | RT-T215Y | plaque count |  | A036C (RT-T215Y) | HT4 + HT4-6C | 0.6 µM
CO[P@](=O)(c1cc(C)cc(/C=C/C#N)c1)c1c(C(N)=O)[nH]c2ccc(Cl)cc12 | Y181C | ELISA |  | NL4-3 | MT-4 | 0.0036 µM
CC[C@H](C)[C@H](NC(=O)c1ccccc1SSc1ccccc1C(=O)N[C@H](C(=O)O)[C@@H](C)CC)C(=O)O | RT-K103N Y181C | p24 / RT activity |  | A17 | MT-2 | 5.6 µM
CC(=O)N1CCC(C(=O)N(CCCN2CCC(Cc3ccc(C(N)=O)cc3)CC2)c2ccc(C)c(Cl)c2)CC1 |  | luciferase |  | R5 subtype B_7 recombinant | U87 (CD4+ CCR5+) + U87 | 0.01 µM
Nc1nc(=O)n([C@H]2CS[C@@H](CO)O2)cc1F |  | plaque count |  | HXB2 | HT4 + HT4 LacZ-1 | 19 µM
COC(=O)N[C@H](C(=O)N[C@@H](Cc1ccccc1)[C@@H](O)CN(Cc1ccc(-c2ccccn2)cc1)NC(=O)[C@@H](NC(=O)OC)C(C)(C)C)C(C)(C)C | L10F L33I M36I M46I I54V K55R I62V L63P A71V G73S V82T | p24 / luminescence |  | NL4-3 | MT-4 | >1 µM
CCCc1cc(=O)oc2c3c(c4c(c12)OC(C)(C)C=C4)O[C@H](C)[C@@H](C)[C@@H]3O | RT-Y181C | XTT |  | UC38-resistant (RT Y181C) | CEM + CEM-SS | 0.2 µM
Cc1cc(S(N)(=O)=O)ccc1NC(=O)COc1ccc(Cl)cc1C(=O)c1cc(Cl)cc(C#N)c1 | RT-V108I Y181C | β-galactosidase |  | NNRTI-resistant (RT V108I Y181C) | MAGI | 0.0009 µM
CC(C)CN(C[C@@H](O)[C@H](Cc1ccccc1)NC(=O)O[C@H]1CCOC1)S(=O)(=O)c1ccc(N)cc1 | L10I M46L I54V V82A | p24 / luminescence |  | NL4-3 | MT-4 | >1 µM
CCc1c(CC2CCCCC2)nc(SCC(=O)c2ccccc2)[nH]c1=O | 74V | ELISA |  | Clinical isolate | C8166 | 0.00327 µM
Cc1cc(/C=C/C#N)cc(C)c1Nc1ccnc(Nc2ccc(C#N)cc2)n1 |  | absorbance |  | 92BR014 | PBMC | 0.0024 µM